A mixed list of measured activities; the numbers were collected in NIAID ChemDB.

All rows: whole-cell or culture tests; organism: Rhinovirus

Lines come from different laboratories, so protocols vary. ECn is the concentration giving n% inhibition of infection, replication or growth.

structure,strain or isolate,cells,measure,method,result
CN(C)c1nc(C(F)(F)F)nc2c1ncn2Cc1ccc(F)cc1,Serotype 19,M-HELA,EC50,plaque count,>8 µM
CCc1ccc(CCCOc2cc(C)c(-c3noc(C(F)F)n3)c(C)c2)nn1,serotypes 3 4 5 9 16 18 38 66 75 67,HeLa,EC50,cytopathic effect,0.26 µg/mL
CN(C)c1nc(C(F)(F)F)nc2c1ncn2Cc1cccc(F)c1,TYPE 1B,M-HELA,EC50,plaque count,0.03 µM
CSc1nsc(-c2ccc(OCCCc3ccccc3)cc2)c1C#N,Serotype 42 (group A),HELA-OHIO,EC50,cytopathic effect,>20 µM
COc1ccc(CCCOc2cc(C)c(-c3noc(C(F)F)n3)c(C)c2)nn1,serotypes 3 4 5 9 16 18 38 66 75 67,HeLa,EC80,cytopathic effect,0.15 µg/mL
CSc1nsc(-c2ccc(OCCCCOc3ccccc3)cc2)c1C#N,Serotype 42 (group A),HELA-OHIO,EC50,cytopathic effect,>20 µM
Cc1c(-c2ccccc2)n(-c2ccc(F)cc2)c2ccc(C(C)C)cc2c1=O,TYPE 5,HELA-OHIO,EC50,cytopathic effect,>2 µg/mL
Cc1ccc(Cn2cnc3c(N(C)C)nc(C(F)(F)F)nc32)cc1,Serotype 4,M-HELA,EC50,plaque count,>2.5 µM
Fc1cccc(Cn2cnc3c(Nc4cccc(F)c4)nc(C(F)(F)F)nc32)c1,Serotype 35,M-HELA,EC50,plaque count,9.7 µM
CSc1nsc(-c2ccccc2)c1C#N,Serotype 39 (group B),HELA-OHIO,EC50,cytopathic effect,>80 µM
CN(C)c1nc(C(F)(F)F)nc2c1ncn2Cc1ccc(Cl)c(NC=O)c1,Serotype 15,M-HELA,EC50,plaque count,>8 µM
CSc1nsc(-c2ccc(OCc3ccccc3)cc2)c1C#N,Serotype 86 (group A),HELA-OHIO,EC50,cytopathic effect,2 µM
COCc1cc(CCCOc2c(Cl)cc(-c3noc(C)n3)cc2Cl)on1,Serotype 30,HeLa,EC50,cytopathic effect,0.015 µg/mL
CC(=O)Oc1ccc(CCCOc2cc(C)c(-c3noc(C)n3)c(C)c2)nn1,serotypes 3 4 5 9 16 18 38 66 75 67,HeLa,EC50,cytopathic effect,0.2 µg/mL
CSc1nsc(-c2ccc(O)cc2)c1C#N,Serotype 51 (group B),HELA-OHIO,EC50,cytopathic effect,>10 µM
Cc1cc(CCCCCOc2c(Cl)cc(C3=NCCO3)cc2Cl)on1,TYPE 10,HeLa,EC50,plaque count,0.18 µg/mL
CSc1nsc(-c2ccc(OCCOc3ccc([N+](=O)[O-])cc3)cc2)c1C#N,Serotype 2 (group B),HELA-OHIO,EC50,cytopathic effect,>2 µM
COc1ccc(Cn2cnc3c(N(C)C)nc(C(F)(F)F)nc32)cc1C,Serotype 1B,M-HELA,EC50,plaque count,0.2 µM
CCOC(=O)/C=C/[C@H](C[C@@H]1CCNC1=O)NC(=O)[C@@H](CC(=O)[C@@H](NC(=O)c1cc(C)on1)C(C)C)Cc1ccc(F)cc1,Isolate 30,OHIO HELA-I,EC50,cytopathic effect / visual reading,0.02 µg/mL
CCOC(=O)c1ccc(OCCC2CCN(c3ccc(C)nn3)CC2)cc1,FO2-3607 (sialoprotein receptor group 87),KB,EC50,neutral red,0.054 µM
Cc1c(-c2ccccc2)n(-c2cccc(F)c2)c2ccc(C(C)C)cc2c1=O,14/1059,HELA-OHIO,EC50,cytopathic effect,>1 µg/mL
Cc1cc(OCCCc2ccc(=O)[nH]n2)cc(C)c1-c1noc(C(F)F)n1,serotypes 3 4 5 9 16 18 38 66 75 67,HeLa,EC80,cytopathic effect,2.16 µg/mL
CCOC(=O)c1ccc(OCCCCOc2ccc(-c3snc(SC)c3C#N)cc2)cc1,Serotype 29 (group B),HELA-OHIO,EC50,cytopathic effect,>2 µM
Cc1nc(-c2cc(C)c(OCCCc3cc(C(F)(F)F)no3)c(C)c2)no1,Serotype 30,HeLa,EC50,cytopathic effect,0.065 µg/mL
CN(C)c1ccc(Cn2cnc3c(Nc4cccc(F)c4)nc(C(F)(F)F)nc32)cc1,Serotype 4,M-HELA,EC50,plaque count,110 µM
COc1ccc(-c2snc(SC)c2C#N)cc1,Serotype 39 (group B),HELA-OHIO,EC50,cytopathic effect,>12 µM
CN(C)c1nc(C(F)(F)F)nc2c1ncn2Cc1ccccc1Cl,Serotype 1B,M-HELA,EC50,plaque count,0.2 µM
CSc1nsc(-c2ccc(OCCOc3ccccc3)cc2)c1C#N,Serotype 29 (group B),HELA-OHIO,EC50,cytopathic effect,>20 µM
CCn1c2c(c(=O)c3cc(C(C)C)ccc31)Cc1ccccc1-2,Clinical isolate,HELA-OHIO,EC50,cytopathic effect,1.9 µg/mL
CCOc1cc(CCCOc2c(C)cc(-c3noc(C)n3)cc2C)on1,Serotype 21,HeLa,EC50,cytopathic effect,0.008 µg/mL

Repeating the final 4 entries:

{"structure": "CN(C)c1nc(C(F)(F)F)nc2c1ncn2Cc1ccccc1Cl", "strain or isolate": "Serotype 1B", "cells": "M-HELA", "measure": "EC50", "method": "plaque count", "result": "0.2 µM"}
{"structure": "CSc1nsc(-c2ccc(OCCOc3ccccc3)cc2)c1C#N", "strain or isolate": "Serotype 29 (group B)", "cells": "HELA-OHIO", "measure": "EC50", "method": "cytopathic effect", "result": ">20 µM"}
{"structure": "CCn1c2c(c(=O)c3cc(C(C)C)ccc31)Cc1ccccc1-2", "strain or isolate": "Clinical isolate", "cells": "HELA-OHIO", "measure": "EC50", "method": "cytopathic effect", "result": "1.9 µg/mL"}
{"structure": "CCOc1cc(CCCOc2c(C)cc(-c3noc(C)n3)cc2C)on1", "strain or isolate": "Serotype 21", "cells": "HeLa", "measure": "EC50", "method": "cytopathic effect", "result": "0.008 µg/mL"}